Compound potency records, mixed from different reports. Data source: NIAID ChemDB in PubChem.

Shared fields: whole-cell or culture tests; agent: HIV-1

Conditions beyond the fields shown may differ between rows.

SMILES,cells,method,strain or isolate,mutations,read-out,value
COc1ccc(C(=O)/C=C/c2ccc(OC)cc2OC)cc1,MT-4,MTT,IIIB,,EC50,>400 µM
Cc1cc(C#N)cc(C)c1Oc1nc(NC2CCN(Cc3ccc(S(N)(=O)=O)cc3)CC2C(=O)O)nc2ccsc12,MT-4,MTT,IIIB,NNRTI-resistant (RT K103N),EC50,0.827 µM
N[C@H]1CONC1=O,CEM,syncytia,N1T,,EC50,<5 µg/mL
COc1c(Br)c2c(c(OC)c1OC)-c1c(c(Br)c3c(c1OC)OCO3)C[C@H](C)[C@@](C)(O)C2,H9,p24,IIIB,,EC50,>9 µg/mL
CC(Oc1cccc2cccnc12)C(=O)N1CCC(=C(C#N)c2ccccc2)CC1,HeLa CD4,luciferase / reporter gene,,,EC50,≤1 µM
C=C(C)C1CC[C@@H]2CC[C@]3(C)C(CCC4[C@@]5(C)CC[C@H](O)C(C)(C)C5CC[C@]43C)C12,1A2,syncytia,MC99 (Tat/Rev defective),,EC50,6.21 µg/mL
Nc1ccn([C@H]2CC[C@@H](CO)O2)c(=O)n1,MT-4,MTT,IIIB,,EC50,1.113 µM
CC(C)C1=C2[C@H]3CC[C@@H]4[C@@]5(C)CC[C@H](OC(=O)[C@H]6C[C@@H](C(=O)O)C6(C)C)C(C)(C)[C@@H]5CC[C@@]4(C)[C@]3(C)CC[C@@]2(CCNCC(C)(C)NC(=O)CN(C)C)CC1=O,MT-2,p24 / ELISA,92HT599,,EC50,<1 µM
COC(=O)c1c2c(c(OC)c(Br)c1-c1c(Br)c(OC)c3c(c1C(=O)OC)OCO3)OCO2,H9,p24,IIIB,,EC50,>45 µg/mL
C=C1C(n2ccc(=O)[nH]c2=O)C=CC1(CO)CO,MT-4,,,,EC50,58 µM
CCOP(=O)(OCC)C(Cc1ccccc1)N[C@@H](Cc1ccccc1)[C@H](O)CN(CC(C)C)S(=O)(=O)c1ccc(OC)cc1,MT-4,MTT,IIIB,,EC50,>13.25 µg/mL
COc1c(Br)c2c(c(OC)c1OC)-c1c(c(Br)c(OC)c(OC)c1OC)C[C@H](C)[C@H](C)C2,H9,p24,IIIB,,EC50,20 µg/mL
CC(C)C1=C2[C@H]3CC[C@@H]4[C@@]5(C)CC[C@H](OC(=O)[C@H]6C[C@@H](C(=O)O)C6(C)C)C(C)(C)[C@@H]5CC[C@@]4(C)[C@]3(C)CC[C@@]2([C@@H](O)CNC(=O)c2ccccc2)CC1=O,MT-2,p24 / ELISA,92HT599,,EC50,<1 µM
COC(=O)c1cnn2c1n[n+]([O-])c1ccccc12,MT-4,cytopathic effect / MTT,IIIB,,EC50,>98 µM
O=c1ccn([C@H]2C=C[C@@H](CO)O2)c(=O)n1CCCCCCN1CCN(CCNC(=S)Nc2ccc(Br)cn2)CC1,MT-4,RT activity,IIIB,,EC50,>100 µM
O=C(/C=C/c1ccc(Cl)cc1)c1ccccc1O,MT-4,MTT,IIIB,,EC50,>400 µM
CC(C)C1=C2[C@H]3CC[C@@H]4[C@@]5(C)CC[C@H](OC(=O)[C@H]6C[C@@H](C(=O)O)C6(C)C)C(C)(C)[C@@H]5CC[C@@]4(C)[C@]3(C)CC[C@@]2([C@@H](O)CNC(=O)[C@H](C)NC(=O)c2ccc(Cl)cc2)CC1=O,MT-2,p24 / ELISA,92HT599,,EC50,<1 µM
CC(=Nc1ccc(O)cc1)C1Sc2ncccc2C1=O,PBMC,RT activity,NL4-3,,EC50,4.49 µM
COC(=O)c1cc(-c2cc(C(=O)OC)c3c(c2OC)OCO3)c(OC)c2c1OCO2,H9,p24,IIIB,,EC50,>1.8 µg/mL
Brc1cnn2c1nnc1ccccc12,MT-4,cytopathic effect / MTT,IIIB,,EC50,>200 µM
Cc1cn([C@H]2CC[C@@H](CO)O2)c(=O)[nH]c1=S,CEM,cytopathic effect,,,EC50,35 µM
COc1ccc(/C=C/C(=O)c2ccccc2O)cc1OC,MT-4,MTT,IIIB,,EC50,>400 µM
S=C(NCCN1CCNCC1)Nc1ccc(Br)cn1,PBMC,RT activity,IIIB,,EC50,8.6 µM
OC[C@@H]1CC[C@H](n2cnc3cccnc32)O1,JM,p24,GB8,,EC50,>1000 µM
C=C1C(n2cc(C)c(=O)[nH]c2=O)C=CC1(CO)CO,MT-4,,,,EC50,66 µM
COc1ccc(/C=C/C(=O)c2ccc(OC)cc2O)cc1,MT-4,MTT,IIIB,,EC50,>400 µM
COc1c2c(cc3c1-c1c(cc4c(c1OC)OCO4)C(OC(=O)c1ccccc1)[C@@](C)(O)[C@@H](C)C3)OCO2,H9,p24,IIIB,,EC50,0.5 µg/mL
C=C(C)C1CC[C@]2(C(=O)O)CC[C@]3(C)C(CCC4[C@@]5(C)C[C@@H](O)[C@H](C(=O)[O-])C(C)(C)C5CC[C@]43C)C12,1A2,syncytia,MC99 (Tat/Rev defective),,EC50,6 µg/mL
CC(Oc1ccnc2ccccc12)C(=O)N1CCC(=C(C#N)c2ccccc2)CC1,HeLa CD4,luciferase / reporter gene,,,EC50,≤1 µM
Cc1cn([C@@H]2O[C@H](COCC(C)C)C3(OS(=O)(=O)C=C3N)[C@H]2O[Si](C)(C)C(C)(C)C)c(=O)n(C)c1=O,MT-4,,,,EC50,4.5 µM
CC(C)c1c(Cc2ccccc2)n(COCc2ccccc2)c(=O)[nH]c1=O,MT-4,p24 / ELISA,SF33,,EC50,0.022 µM
COC(=O)[C@H](C)NP(=O)(OC[C@@H]1C=C[C@H](n2cc(C)c(=O)[nH]c2=O)O1)Oc1ccccc1,CEM + CEM/O,,IIIB,,EC50,0.085 µM
O=C(/C=C/c1ccc(Br)cc1)c1ccccc1O,MT-4,MTT,IIIB,,EC50,>400 µM
CCCCCCCCCCCCCC(=O)OCC/C(SS/C(CCOC(=O)CCCCCCCCCCCCC)=C(\C)N(C=O)Cc1cnc(C)nc1N)=C(/C)N(C=O)Cc1cnc(C)nc1N,PBMC(CXCR4 CCR5) + PBMC,p24,KMT(SI/TT),,EC50,<25 µM
COCCCCCCCCCCCC(=O)O,PBMC,syncytia,IIIB,,EC50,19 µM
[2H]C(CCN)(CNC[C@H](O)[C@@]12CC[C@]3(C)[C@H](CC[C@@H]4[C@@]5(C)CC[C@H](OC(=O)[C@H]6C[C@@H](C(=O)O)C6(C)C)C(C)(C)[C@@H]5CC[C@]43C)C1=C(C(C)C)C(=O)C2)NC(=O)c1ccc(Cl)cc1,MT-2,p24 / ELISA,92HT599,,EC50,<1 µM
Cc1cc(/C=C/C#N)cc(C)c1Oc1nc(NC2CCN(Cc3cccc(C#N)c3)CC2)nc2ccsc12,MT-4,MTT,IIIB,NNRTI-resistant (RT K103N),EC50,0.00602 µM
N#Cc1cnn2c1n[n+]([O-])c1cc([N+](=O)[O-])ccc12,MT-4,cytopathic effect / MTT,IIIB,,EC50,>1 µM
CCOP(=O)(CN[C@@H](Cc1ccccc1)[C@H](O)CN(CC(C)C)S(=O)(=O)c1ccc(OC)cc1)OCC,MT-4,MTT,RES056,,EC50,7.4 µg/mL
CC(Oc1cccc2ncccc12)C(=O)N1CCC(=C(c2ccccc2)c2ccccc2)CC1,HeLa CD4,luciferase / reporter gene,,,EC50,>1 µM
Cc1cc(/C=C/C#N)cc(C)c1Oc1nc(NC2CCN(Cc3cccc(F)c3)CC2)nc2ccsc12,MT-4,MTT,IIIB,NNRTI-resistant (RT K103N),EC50,0.0211 µM
CCCCCCNc1ncnc2c1ncn2[C@H]1CC[C@@H](CO)O1,JM,p24,GB8,,EC90,>200 µM
Cc1cc(/C=C/C#N)cc(C)c1Oc1nc(NC2CCN(Cc3ccc(C#N)cc3)CC2)nc2ccsc12,MT-4,MTT,IIIB,NNRTI-resistant (RT L100I),EC50,0.00736 µM
CC1=C(C(=O)Nc2ccc(Cl)c(C(=O)OC(C)C)c2)SCCO1,MT-2,p24 / RT activity,IIIB,,EC50,0.24 µM
N#Cc1cnn2c1n[n+]([O-])c1cc(Cl)ccc12,MT-4,cytopathic effect / MTT,IIIB,,EC50,>13 µM
O=c1ccn([C@H]2C=C[C@@H](CO)O2)c(=O)n1C/C=C/CN1CCN(CCNC(=S)Nc2ccc(Br)cn2)CC1,MT-4,RT activity,IIIB,,EC50,>100 µM
Cc1cc(/C=C/C#N)cc(C)c1Oc1nc(NC2CCN(Cc3cccc(C(N)=O)c3)CC2)nc2ccsc12,MT-4,MTT,IIIB,NNRTI-resistant (RT L100I),EC50,0.00512 µM
COc1cc2c(c(OC)c1OC)-c1c(cc3c(c1OC)OCO3)C(OC(=O)c1ccccc1)[C@@](C)(O)[C@@H](C)C2,H9,p24,IIIB,,EC50,0.006 µg/mL
Cc1cn([C@H]2C=C[C@@H](CO)O2)c(=O)[nH]c1=O,MT-4,RT activity,IIIB,,EC50,0.28 µM
COc1cc(Cl)ccc1C(=O)NC(C)(C)CNC(=O)C[C@@]12CC[C@]3(C)[C@H](CC[C@@H]4[C@@]5(C)CC[C@H](OC(=O)[C@H]6C[C@@H](C(=O)O)C6(C)C)C(C)(C)[C@@H]5CC[C@]43C)C1=C(C(C)C)C(=O)C2,MT-2,p24 / ELISA,92HT599,,EC50,<1 µM
[O-][n+]1nc2ccnn2c2ccc(Cl)cc21,MT-4,cytopathic effect / MTT,IIIB,,EC50,>200 µM
CC(C)C1=C2[C@H]3CC[C@@H]4[C@@]5(C)CC[C@H](OC(=O)[C@H]6C[C@@H](C(=O)O)C6(C)C)C(C)(C)[C@@H]5CC[C@@]4(C)[C@]3(C)CC[C@@]2(CC(=O)NCC(C)(C)NC(=O)c2ccncc2)CC1=O,MT-2,p24 / ELISA,92HT599,,EC50,<1 µM
N#Cc1cnn2c1nnc1ccccc12,MT-4,cytopathic effect / MTT,IIIB,,EC50,>200 µM

Repeating the final 6 entries:

{"SMILES": "COc1cc2c(c(OC)c1OC)-c1c(cc3c(c1OC)OCO3)C(OC(=O)c1ccccc1)[C@@](C)(O)[C@@H](C)C2", "cells": "H9", "method": "p24", "strain or isolate": "IIIB", "read-out": "EC50", "value": "0.006 µg/mL"}
{"SMILES": "Cc1cn([C@H]2C=C[C@@H](CO)O2)c(=O)[nH]c1=O", "cells": "MT-4", "method": "RT activity", "strain or isolate": "IIIB", "read-out": "EC50", "value": "0.28 µM"}
{"SMILES": "COc1cc(Cl)ccc1C(=O)NC(C)(C)CNC(=O)C[C@@]12CC[C@]3(C)[C@H](CC[C@@H]4[C@@]5(C)CC[C@H](OC(=O)[C@H]6C[C@@H](C(=O)O)C6(C)C)C(C)(C)[C@@H]5CC[C@]43C)C1=C(C(C)C)C(=O)C2", "cells": "MT-2", "method": "p24 / ELISA", "strain or isolate": "92HT599", "read-out": "EC50", "value": "<1 µM"}
{"SMILES": "[O-][n+]1nc2ccnn2c2ccc(Cl)cc21", "cells": "MT-4", "method": "cytopathic effect / MTT", "strain or isolate": "IIIB", "read-out": "EC50", "value": ">200 µM"}
{"SMILES": "CC(C)C1=C2[C@H]3CC[C@@H]4[C@@]5(C)CC[C@H](OC(=O)[C@H]6C[C@@H](C(=O)O)C6(C)C)C(C)(C)[C@@H]5CC[C@@]4(C)[C@]3(C)CC[C@@]2(CC(=O)NCC(C)(C)NC(=O)c2ccncc2)CC1=O", "cells": "MT-2", "method": "p24 / ELISA", "strain or isolate": "92HT599", "read-out": "EC50", "value": "<1 µM"}
{"SMILES": "N#Cc1cnn2c1nnc1ccccc12", "cells": "MT-4", "method": "cytopathic effect / MTT", "strain or isolate": "IIIB", "read-out": "EC50", "value": ">200 µM"}

ECn: concentration that inhibits the pathogen or its effect by n%. Blank or dashed fields: not listed here.